PubChem BioAssay AID1259414 | Drosophila RNAi Screening Center | 2018
The deposit covers about 24,000 reagents; below is an unselected part of those with a known target gene and a result. Over the whole deposit, about 1,210 (5%) are marked active. 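Inactive calls also include excluded dsRNAs with several or no targets, genes unexpressed in JW18, and well A1, regardless of score.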 A number with no mark means an inactive call. No sequences are given here.

Screen: 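Fly genes that alter Wolbachia amount inside host cells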 (primary screen)
Cells: Drosophila JW18 cells infected with Wolbachia
Reagent: long dsRNA against Drosophila genes, 0.25 µg dsRNA per well of a 384-well plate
Duration: 5 days
Conditions: cells persistently infected with Wolbachia before knock-down; no added drug
Measured: 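Imaged fluorescence in situ signal for Wolbachia 23S rRNA per DAPI-counted host cell, given as a robust z-score within each plate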
Direction: Wolbachia per cell robust z: higher = more Wolbachia per host cell than the plate typical
Hit rule: 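Active if absolute robust z reaches 1.5 in two or more of three replicates, leaving out multi- or no-target dsRNAs, genes unexpressed in JW18 and A1 wells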

The opening 3 records as a preview:
Cdk2 [DRSC16921] | Wolbachia per cell robust z, rep 1: 0.197; Wolbachia per cell robust z, rep 2: -3.71; Wolbachia per cell robust z, rep 3: 1.5
tweek [DRSC02433] | Wolbachia per cell robust z, rep 1: 0.000264; Wolbachia per cell robust z, rep 2: 0.454; Wolbachia per cell robust z, rep 3: 0.617
tweek [DRSC02434] | Wolbachia per cell robust z, rep 1: 0.248; Wolbachia per cell robust z, rep 2: -0.229; Wolbachia per cell robust z, rep 3: -2.89

Results, repeating the preview:
Cdk2 [DRSC16921] | Wolbachia per cell robust z, rep 1: 0.197; Wolbachia per cell robust z, rep 2: -3.71; Wolbachia per cell robust z, rep 3: 1.5
tweek [DRSC02433] | Wolbachia per cell robust z, rep 1: 0.000264; Wolbachia per cell robust z, rep 2: 0.454; Wolbachia per cell robust z, rep 3: 0.617
tweek [DRSC02434] | Wolbachia per cell robust z, rep 1: 0.248; Wolbachia per cell robust z, rep 2: -0.229; Wolbachia per cell robust z, rep 3: -2.89
tweek [DRSC23133] | Wolbachia per cell robust z, rep 1: 0.0843; Wolbachia per cell robust z, rep 2: -1.84; Wolbachia per cell robust z, rep 3: -0.08
CG6893 [DRSC10742] | Wolbachia per cell robust z, rep 1: -4.1; Wolbachia per cell robust z, rep 2: -0.457; Wolbachia per cell robust z, rep 3: 1.31
yellow-h [DRSC17141] | Wolbachia per cell robust z, rep 1: 0.482; Wolbachia per cell robust z, rep 2: -0.254; Wolbachia per cell robust z, rep 3: -1.01
CG11151 [DRSC19387] | Wolbachia per cell robust z, rep 1: 0.708; Wolbachia per cell robust z, rep 2: -0.481; Wolbachia per cell robust z, rep 3: 1.26
CG33127 [DRSC00011] | Wolbachia per cell robust z, rep 1: -0.321; Wolbachia per cell robust z, rep 2: -0.727; Wolbachia per cell robust z, rep 3: -0.5
CG5439 [DRSC02861] | Wolbachia per cell robust z, rep 1: -1.9; Wolbachia per cell robust z, rep 2: -0.991; Wolbachia per cell robust z, rep 3: -0.169
CG5439 [DRSC25932] | Wolbachia per cell robust z, rep 1: -0.526; Wolbachia per cell robust z, rep 2: -0.271; Wolbachia per cell robust z, rep 3: 0.584
CG17698 [DRSC11907] | Wolbachia per cell robust z, rep 1: -3.86; Wolbachia per cell robust z, rep 2: -4.43; Wolbachia per cell robust z, rep 3: -5.43
CtsL4 [DRSC02849] | Wolbachia per cell robust z, rep 1: 0.395; Wolbachia per cell robust z, rep 2: 0.112; Wolbachia per cell robust z, rep 3: 0.95
Pvf3 [DRSC02284] | Wolbachia per cell robust z, rep 1: -0.106; Wolbachia per cell robust z, rep 2: -2.28; Wolbachia per cell robust z, rep 3: -1.01
Pvf3 [DRSC02285] | Wolbachia per cell robust z, rep 1: -0.317; Wolbachia per cell robust z, rep 2: -1.11; Wolbachia per cell robust z, rep 3: -0.913
Pvf3 [DRSC02286] | Wolbachia per cell robust z, rep 1: 0.269; Wolbachia per cell robust z, rep 2: 0.889; Wolbachia per cell robust z, rep 3: 0.582
Pvf3 [DRSC02751] | Wolbachia per cell robust z, rep 1: -0.901; Wolbachia per cell robust z, rep 2: -0.173; Wolbachia per cell robust z, rep 3: -0.986
Pvf3 [DRSC25172] | Wolbachia per cell robust z, rep 1: -0.975; Wolbachia per cell robust z, rep 2: 1.7; Wolbachia per cell robust z, rep 3: -0.024
Pvf3 [DRSC28641] | Wolbachia per cell robust z, rep 1: 1.16; Wolbachia per cell robust z, rep 2: 0.557; Wolbachia per cell robust z, rep 3: 0.0368
Spn28B [DRSC02982] | Wolbachia per cell robust z, rep 1: 0.396; Wolbachia per cell robust z, rep 2: 1.02; Wolbachia per cell robust z, rep 3: 0.095
scyl [DRSC11392] | Wolbachia per cell robust z, rep 1: 0.762; Wolbachia per cell robust z, rep 2: -1.03; Wolbachia per cell robust z, rep 3: 0.658
scyl [DRSC27699] | Wolbachia per cell robust z, rep 1: -0.401; Wolbachia per cell robust z, rep 2: -0.373; Wolbachia per cell robust z, rep 3: -0.857
mex1 [DRSC11368] | Wolbachia per cell robust z, rep 1: 0.526; Wolbachia per cell robust z, rep 2: -0.799; Wolbachia per cell robust z, rep 3: -0.721
CG34256 [DRSC38833] | Wolbachia per cell robust z, rep 1: -0.604; Wolbachia per cell robust z, rep 2: 0.676; Wolbachia per cell robust z, rep 3: 0.543
CG17147 [DRSC10249] | Wolbachia per cell robust z, rep 1: -1.07; Wolbachia per cell robust z, rep 2: -0.232; Wolbachia per cell robust z, rep 3: -7.49
CG17147 [DRSC29813] | Wolbachia per cell robust z, rep 1: 0.471; Wolbachia per cell robust z, rep 2: -0.58; Wolbachia per cell robust z, rep 3: -0.309
